Measured values from several laboratories, pooled; numbers as filed in NIAID ChemDB.

All rows: tests in culture; organism: Hepatitis C virus; method: replicon; endpoint: EC50

a–b is a range or a potency band.

structure,strain or isolate,cells,value
CNC(=O)c1c(-c2ccc(F)cc2)oc2cc(N(C)S(C)(=O)=O)c(OCC(=O)c3ccc(OC)cc3)cc12,-,Huh7,<1 µM
COc1cccc(CC(=O)N/N=C/c2ccccc2OS(=O)(=O)c2ccc(Oc3ccc(F)cc3)cc2)c1,-,Huh7,>50 µM
CNC(=O)c1c(-c2ccc(F)cc2)oc2cc(-c3cc(CO)on3)c(OC)cc12,-,Huh7,<1 µM
CNc1cc2c(cc1F)c(=O)c(-c1noc(Cc3ccccc3)n1)cn2Cc1ccc(C(F)(F)F)cc1F,1b,-,<2 µM
CNC(=O)c1c(-c2ccc(F)cc2)oc2cc(NS(C)(=O)=O)c(O)cc12,-,Huh7,<30 µM
COCCOc1nc(N)nc2ccc(-c3ccc(C(=O)NOC)cc3)nc12,-,Huh7,0.3–1 µM
COC(=O)c1ccc2c(C3CCCCC3)c3n(c2c1)CC(C(=O)O)=Cc1cc(OCc2ccccc2)ccc1-3,-,Huh7,1–10 µM
CNC(=O)c1c(-c2ccc(F)cc2)oc2cc(NS(C)(=O)=O)c(-c3c(C)noc3C)cc12,-,Huh7,<10 µM
C=CC1CC1(NC(=O)[C@@H]1C[C@@H](OC(=O)Nc2ccccc2C(=O)OCC)CN1C(=O)[C@@H](NC(=O)OC(C)(C)C)C(C)(C)C)C(=O)NS(=O)(=O)C1CC1,1b,Huh7,<0.1 µM
CN(C)c1ccc(CC(=O)N/N=C/c2ccccc2OS(=O)(=O)c2ccc(C(F)(F)F)cc2)cc1,-,Huh7,<5 µM
C[C@@H](O)C(=O)Nc1ccc(-c2ccc3nc(NCc4ccc(S(N)(=O)=O)cc4)nc(NCC(F)(F)F)c3n2)cc1,-,-,<0.1 µM
COc1cccc(CC(=O)N/N=C/c2cc(Br)ccc2OS(=O)(=O)c2ccc(C(F)(F)F)cc2)c1,-,Huh7,<5 µM
CNC(=O)c1c(-c2ccc(F)cc2)oc2cc(-c3ccnn3C)c(OC(C)C)cc12,-,Huh7,<1 µM
CN1CCN(c2cc3c(cc2F)c(=O)c(-c2nnc(Cc4ccccc4)o2)cn3Cc2ccc(Cl)cc2)CC1,1b,-,<2 µM
O=C(Cc1cccc(Cl)c1)N/N=C/c1c(Cl)cccc1OS(=O)(=O)c1ccc(C(F)(F)F)cc1,-,Huh7,<5 µM
C=CC1CC1(NC(=O)[C@@H]1C[C@@H](OC(=O)Nc2cc(Cl)nc(Cl)c2)CN1C(=O)[C@@H](NC(=O)OC(C)(C)C)C(C)(C)C)C(=O)NS(=O)(=O)C1CC1,1b,Huh7,>10 µM
CN1CCN(c2cc3c(cc2F)c(=O)c(-c2noc(Cc4ccccc4)n2)cn3Cc2ccc(C(F)(F)F)cc2)CC1,1b,-,<2 µM
C=CC1CC1(NC(=O)[C@@H]1C[C@@H](OC(=O)Nc2ccccc2Cl)CN1C(=O)[C@@H](NC(=O)OC(C)(C)C)C(C)(C)C)C(=O)NS(=O)(=O)C1CC1,1b,Huh7,1–10 µM
NS(=O)(=O)c1ccc(CNc2nc(NCC(F)(F)F)c3nc(-c4ccc(O)cc4)ccc3n2)cc1,-,-,<0.1 µM
CN1CCN(c2cc3c(cc2F)c(=O)c(-c2noc(Cc4cccnc4)n2)cn3Cc2ccc(Cl)cc2)CC1,1b,-,<2 µM
C=CC1CC1(NC(=O)[C@@H]1C[C@@H](OC(=O)Nc2cc(C(C)=O)ccc2N2CCC(C(=O)OCC)CC2)CN1C(=O)[C@@H](NC(=O)OC(C)(C)C)C(C)(C)C)C(=O)NS(=O)(=O)C1CC1,1b,Huh7,0.1–1 µM
N#CC1(Nc2nc(NCc3ccc(S(N)(=O)=O)cc3)nc3ccc(-c4ccc(F)cc4)nc23)CC1,-,-,<0.1 µM
CC(C)(c1ccc(F)cc1)c1nnc(-c2cn(Cc3ccc(C(F)(F)F)cc3)c3cc(N4CCOCC4)c(F)cc3c2=O)o1,1b,-,<2 µM
Fc1ccc(CNc2nc(O[C@H]3CCOC3)c3nc(-c4ccc(F)cc4)ccc3n2)cc1,-,-,<0.1 µM
COC(=O)C1=Cc2ccccc2-c2c(C3CCCCC3)c3ccc(C(=O)NS(=O)(=O)N(C)C)cc3n2C1,-,Huh7,0.01–1 µM
CC(C)(c1ccc(F)cc1)c1nc(-c2cn(Cc3ccc(C(F)(F)F)cc3)c3cc(N4CCSCC4)c(F)cc3c2=O)no1,1b,-,<0.5 µM
COc1cccc(CC(=O)N/N=C/c2ccc(Cl)cc2OS(=O)(=O)c2ccc(C(F)(F)F)cc2)c1,-,Huh7,5–50 µM
CN(C)c1cc2c(cc1F)c(=O)c(-c1noc(Cc3ccccc3)n1)cn2Cc1ccc(C(F)(F)F)cc1,1b,-,>10 µM
CCOC(=O)c1cc2cc(NC(=O)C3(NC(=O)c4ccc5c(C6CCCCC6)c6n(c5c4)CC(C(=O)NCCN(C)C)Nc4nccnc4-6)CCCC3)ccc2n1C,-,Huh7,0.01–1 µM
C=CC1CC1(NC(=O)[C@@H]1C[C@@H](OC(=O)Nc2ccccc2C(C)=O)CN1C(=O)[C@@H](NC(=O)OC(C)(C)C)C(C)(C)C)C(=O)NS(=O)(=O)C1CC1,1b,Huh7,0.1–1 µM
CCOc1nc(N)nc2ccc(-c3ccc(C(=O)NCCN(C)C)cc3)nc12,-,Huh7,>1 µM
O=C(Cc1ccc(C(F)(F)F)c(F)c1)N/N=C/c1ccccc1OS(=O)(=O)c1ccc(C(F)(F)F)cc1,-,Huh7,<5 µM
O=C(O)/C=C/c1ccc(NC(=O)C2(NC(=O)c3ccc4c(C5CCCCC5)c5n(c4c3)CCCc3[nH]cnc3-5)CCCC2)cc1,-,Huh7,1–10 µM
O=C(Cc1ccccc1SC(F)(F)F)N/N=C/c1ccccc1OS(=O)(=O)c1ccc(C(F)(F)F)cc1,-,Huh7,<5 µM
COC(=O)c1ccc2c(C3CCCCC3)c3n(c2c1)C[C@@H](O)[C@@H](O)c1ccccc1-3,-,Huh7,1–10 µM
NC(=O)CCNc1nc(NCC(F)(F)F)c2nc(-c3ccc(F)cc3)ccc2n1,-,-,<0.1 µM
CNC(=O)c1c(-c2ccc(F)cc2)oc2cc(CN(C)S(C)(=O)=O)c(OC(C)C)cc12,-,Huh7,<10 µM
CC(C)(c1ccc(F)cc1)c1nc(-c2cn(Cc3ccc(C(F)(F)F)cc3)c3cc(N4CCS(=O)(=O)CC4)c(F)cc3c2=O)no1,1b,-,<0.5 µM
O=C(O)c1ccc2c(C3CCCCC3)c3n(c2c1)C(=O)NCc1ccccc1-3,-,Huh7,>10 µM
CN(C)c1cccc(OCC(=O)N/N=C/c2ccccc2OS(=O)(=O)c2ccc(C(F)(F)F)cc2)c1,-,Huh7,>50 µM
O=C(O)c1ccc2c(C3CCCCC3)c3n(c2c1)CCN(C(=O)N1CCOCC1)c1ccccc1-3,-,Huh7,1–10 µM
Nc1nc(O[C@@H]2CCOC2)c2nc(-c3ccc(N4CCCC4=O)cc3)ccc2n1,-,Huh7,<0.3 µM
CNC(=O)c1c(-c2ccc(F)cc2)oc2cc(N3CCOCC3)c(OCc3nsc(Cl)n3)cc12,-,Huh7,<1 µM
CN(CCS(C)(=O)=O)c1nc(NCc2ccc(F)cc2)nc2ccc(-c3ccc(NC(=O)C(C)(C)N)cc3)nc12,-,-,<0.1 µM
O=C(CCc1ccco1)N/N=C/c1ccccc1OS(=O)(=O)c1ccc(C(F)(F)F)cc1,-,Huh7,<5 µM

Repeating the final 3 entries:

CNC(=O)c1c(-c2ccc(F)cc2)oc2cc(N3CCOCC3)c(OCc3nsc(Cl)n3)cc12 ; cells: Huh7 ; value: <1 µM
CN(CCS(C)(=O)=O)c1nc(NCc2ccc(F)cc2)nc2ccc(-c3ccc(NC(=O)C(C)(C)N)cc3)nc12 ; value: <0.1 µM
O=C(CCc1ccco1)N/N=C/c1ccccc1OS(=O)(=O)c1ccc(C(F)(F)F)cc1 ; cells: Huh7 ; value: <5 µM

Neighbouring rows are from separate reports. Blank or dashed fields: not listed here. ECn is the concentration giving n% inhibition of infection, replication or growth.